Reference: patent publication US20240269228A1 (priority 2021, published 2024)
Only a part of the results on these compounds is given; other tests are left out.

Protein sequences, listed by entry. Tags and fused reporters are not part of them. Residues count along the entry.
UniProt Q9GZZ6, 25-450 limits assumed: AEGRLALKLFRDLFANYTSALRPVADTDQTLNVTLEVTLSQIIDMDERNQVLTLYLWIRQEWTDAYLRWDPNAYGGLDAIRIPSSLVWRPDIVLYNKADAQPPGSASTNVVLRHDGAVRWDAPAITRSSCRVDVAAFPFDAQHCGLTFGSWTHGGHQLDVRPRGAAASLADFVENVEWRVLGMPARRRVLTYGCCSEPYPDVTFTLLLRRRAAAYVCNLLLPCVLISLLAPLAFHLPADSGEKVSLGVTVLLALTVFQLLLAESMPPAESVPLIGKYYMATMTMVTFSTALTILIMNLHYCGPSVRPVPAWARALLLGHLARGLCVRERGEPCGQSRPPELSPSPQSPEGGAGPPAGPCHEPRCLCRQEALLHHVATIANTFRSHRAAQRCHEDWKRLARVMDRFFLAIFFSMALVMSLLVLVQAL
UniProt Q9UGM1, 26-479 limits assumed: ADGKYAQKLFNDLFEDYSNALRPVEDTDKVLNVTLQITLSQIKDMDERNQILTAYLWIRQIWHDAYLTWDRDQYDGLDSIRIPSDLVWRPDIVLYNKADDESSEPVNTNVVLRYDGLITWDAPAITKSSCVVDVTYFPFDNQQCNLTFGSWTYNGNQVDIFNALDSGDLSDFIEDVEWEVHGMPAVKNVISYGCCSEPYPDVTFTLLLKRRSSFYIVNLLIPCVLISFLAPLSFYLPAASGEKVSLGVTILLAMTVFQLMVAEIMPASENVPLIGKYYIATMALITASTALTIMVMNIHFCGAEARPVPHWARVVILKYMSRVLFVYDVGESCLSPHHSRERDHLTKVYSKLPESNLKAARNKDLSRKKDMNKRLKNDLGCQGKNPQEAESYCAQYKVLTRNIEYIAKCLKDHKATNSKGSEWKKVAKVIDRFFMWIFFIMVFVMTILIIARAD

Target: human α9α10 nAChR (Homo sapiens, UniProt Q9GZZ6+Q9UGM1)
Experiment: Two-electrode voltage clamp, Xenopus oocytes expressing the receptor
Conditions: h α9α10

Row | SMILES | Hill slope values
1 | C[C@@H](O)[C@@H]1NC(=O)[C@H]2NC(=O)[C@@H](NC(=O)CN)CSSC[C@H](NC(=O)[C@H](CCCNC(=N)N)NC(=O)[C@@H]3CCCN3C(=O)[C@H](CC(=O)O)NC1=O)C(=O)N[C@@H](CCCNC(=N)N)C(=O)N[C@@H](Cc1ccc(O)c(I)c1)C(=O)N[C@@H](CCC(N)=O)C(=O)N[C@H](C(=O)N[C@H](CC(=O)N[C@@H](CCCN)C(=O)O)Cc1ccc(O)cc1)CSSC2(C)C | 0.82 ± 0.2
2 | C[C@@H](O)[C@@H]1NC(=O)[C@H]2NC(=O)[C@@H](NC(=O)CN)CSSC[C@H](NC(=O)[C@H](CCCNC(=N)N)NC(=O)[C@@H]3CCCN3C(=O)[C@H](CC(=O)O)NC1=O)C(=O)N[C@@H](CCCNC(=N)N)C(=O)N[C@@H](Cc1ccc(O)c(I)c1)C(=O)N[C@@H](CCC(N)=O)C(=O)N[C@H](C(=O)N[C@H](CC(=O)N[C@H](CCCNC(=N)N)C(=O)O)Cc1ccc(O)cc1)CSSC2(C)C | 0.83 ± 0.08
3 | C[C@@H](O)[C@@H]1NC(=O)[C@H]2NC(=O)[C@@H](NC(=O)CN)CSSC[C@H](NC(=O)[C@H](CCCNC(=N)N)NC(=O)[C@@H]3CCCN3C(=O)[C@H](CC(=O)O)NC1=O)C(=O)N[C@@H](CCCNC(=N)N)C(=O)N[C@@H](Cc1ccc(O)c(I)c1)C(=O)N[C@@H](CCC(N)=O)C(=O)N[C@H](C(=O)N[C@H](CC(=O)N[C@@H](CCCCN)C(=O)O)Cc1ccc(O)cc1)CSSC2(C)C | 0.81 ± 0.1
4 | C[C@@H](O)[C@@H]1NC(=O)[C@@H]2CSSC[C@@H](C(=O)N[C@@H](Cc3ccc(O)cc3)C(=O)O)NC(=O)[C@H](CCC(N)=O)NC(=O)[C@H](Cc3ccc(O)c(I)c3)NC(=O)[C@H](CCCNC(N)=O)NC(=O)[C@H](CSSC(C)(C)[C@H](NC(=O)CN)C(=O)N2)NC(=O)[C@H](CCCNC(=N)N)NC(=O)[C@@H]2CCCN2C(=O)[C@H](CC(=O)O)NC1=O | 0.5 ± 0.1
5 | C[C@@H](O)[C@@H]1NC(=O)[C@H]2NC(=O)[C@@H](NC(=O)CN)CSSC[C@H](NC(=O)[C@H](CCCNC(=N)N)NC(=O)[C@@H]3CCCN3C(=O)[C@H](CC(=O)O)NC1=O)C(=O)N[C@@H](CCCNC(=N)N)C(=O)N[C@@H](Cc1ccc(O)c(I)c1)C(=O)N[C@@H](CCC(N)=O)C(=O)N[C@H](C(=O)N[C@H](CC(=O)N[C@@H](CCC(=O)O)C(=O)O)Cc1ccc(O)cc1)CSSC2(C)C | 0.82 ± 0.3
6 | C[C@@H](O)[C@@H]1NC(=O)[C@H]2NC(=O)[C@@H](NC(=O)CN)CSSC[C@H](NC(=O)[C@H](CCCNC(=N)N)NC(=O)[C@@H]3CCCN3C(=O)[C@H](CC(=O)O)NC1=O)C(=O)N[C@@H](CCCNC(=N)N)C(=O)N[C@@H](Cc1ccc(O)c(I)c1)C(=O)N[C@@H](CCC(N)=O)C(=O)N[C@H](C(=O)N[C@@H](Cc1ccc(O)cc1)C(=O)N[C@@H](CCCNC(=N)N)C(=O)O)CSSC2(C)C | 1.1 ± 0.2
